1 molecule from PMC5371851 (Toxins, 2017) can be followed below.

A word on the viability: it is a per cent measure of how many cells are alive, often set against a control. Low readings indicate a greater loss of cells, high ones better survival.

This data set is described as follows: in vitro. The note with it: human.

The structures appear in SMILES notation.

For `CC(=O)O[C@@H]1C[C@]2(C)[C@@]3(CO)[C@H](O)C(=O)C(C)=C[C@H]3O[C@H]1[C@@]21CO1` [3-ADON, 3-acetyldeoxynivalenol], the viability was found to be 70%.
